Measured values from patent publication US20140018418A1 (priority 2007, published 2014).

Biological target: neuraminidase of H5N1 influenza virus A/Hanoi/30408/2005 (clone 9), oseltamivir resistant strain (Influenza A virus, UniProt Q3C1C4)

**Q.** CC(=O)N[C@H]1[C@H]([C@H](O)[C@H](O)CO)OC(C(=O)O)=C[C@@H]1N=C(N)N [Zanamivir, reference compound] was tested. Which IC50 did it give?
**A.** 0.81 nM
